Results of unrelated studies side by side (data: NIAID ChemDB).

Shared fields: host cell toxicity; cell line: MT-4; endpoint: CC50

Conditions beyond the fields shown may differ between rows. CCn is the concentration with n% toxicity to the cells.

{"smiles": "COc1cc2nc(S(=O)CC(=O)Nc3cccc(F)c3)nc(Nc3c(Cl)cc(/C=C/C#N)cc3Cl)c2cc1OC", "method": "MTT", "value": "9.55 µM"}
{"smiles": "O=C1CC2CCC1C1C(=O)N(CCCCN3CCN(c4ccccc4O)CC3)C(=O)C21", "method": "MTT", "value": ">100 µM"}
{"smiles": "Cc1ccc(NC(=S)NC2CCN(Cc3ccccc3)CC2)cc1Cl", "method": "MTT", "value": "11.6 µM"}
{"smiles": "CCC(c1cccc(C)c1)c1c(C)c(=O)[nH]c(=O)n1COCc1ccccc1", "method": "MTT", "value": "32.84 µM"}
{"smiles": "O=[N+]([O-])c1cnn2c1n[n+]([O-])c1ccccc12", "value": "1.8 µM"}
{"smiles": "C[C@H]1CC[C@]2(CC(=O)N(Cc3ccc(F)cc3)O2)[C@H]2CN1C(=O)c1c(O)c(=O)c(C(=O)NCc3c(F)cc(F)cc3F)cn12", "method": "luminescence", "value": "50 µM"}
{"smiles": "Fc1ccc(NC(=S)NC2CCN(Cc3ccccc3)CC2)cc1Cl", "method": "MTT", "value": "15.7 µM"}
{"smiles": "Cc1cc(C)c(-n2c(SCC(=O)Nc3ccccc3C)nc3cnccc32)c(C)c1", "method": "MTT", "value": "22 µM"}
{"smiles": "CC1=NO[C@]2(CC[C@H](C)N3C[C@H]2n2cc(C(=O)NCc4ccc(F)cc4F)c(=O)c(O)c2C3=O)C1=O", "method": "luminescence", "value": "50 µM"}
{"smiles": "CN(C)CC(O)CN1C(=O)C2C3CCC(C(=O)C3)C2C1=O", "method": "MTT", "value": ">100 µM"}
{"smiles": "CCC(c1ccc(F)cc1)c1c(C)c(=O)[nH]c(=O)n1COCc1ccccc1", "method": "MTT", "value": "73.82 µM"}
{"smiles": "C[C@H]1CC[C@]2(CC(=O)N(Cc3ccc(C#N)cc3)O2)[C@H]2CN1C(=O)c1c(O)c(=O)c(C(=O)NCc3c(F)cc(F)cc3F)cn12", "method": "luminescence", "value": "50 µM"}
{"smiles": "COc1cccc(NC(=O)CS(=O)c2nc(Nc3c(Cl)cc(/C=C/C#N)cc3Cl)c3cc(OC)c(OC)cc3n2)c1", "method": "MTT", "value": ">167 µM"}
{"smiles": "Cc1cc(-c2ccc(C#N)cc2)cc(C)c1Oc1ccnc(S(=O)(=O)CC(=O)NCc2ccc(F)cc2)n1", "method": "MTT", "value": "6.41 µM"}
{"smiles": "[O-][n+]1nc2ccnn2c2ccccc21", "value": ">200 µM"}
{"smiles": "C[C@H]1CC[C@@]2(CNC(=O)O2)[C@H]2CN1C(=O)c1c(O)c(=O)c(C(=O)NCc3c(F)cc(F)cc3F)cn12", "method": "luminescence", "value": "50 µM"}
{"smiles": "COc1cc2nc(S(=O)CC(=O)Nc3cccc([N+](=O)[O-])c3)nc(Nc3c(Cl)cc(/C=C/C#N)cc3Cl)c2cc1OC", "method": "MTT", "value": ">83.2 µM"}
{"smiles": "Cc1cc(C)c(-n2c(SCC(=O)Nc3ccc(Cl)cc3Cl)nc3cccnc32)c(C)c1", "method": "MTT", "value": "3.9 µM"}
{"smiles": "Cc1cc(-c2ccc(C#N)cc2)cc(C)c1Oc1ccnc(S(=O)(=O)CC(=O)NC(C)c2ccc(F)cc2)n1", "method": "MTT", "value": "4.55 µM"}
{"smiles": "C[C@H]1CC[C@]2(CC(=O)N(C)O2)[C@H]2CN1C(=O)c1c(O)c(=O)c(C(=O)NCc3c(F)cc(F)cc3F)cn12", "method": "luminescence", "value": "50 µM"}
{"smiles": "Cc1cc(-c2ccc(C#N)cc2)cc(C)c1Oc1ccnc(S(=O)(=O)CC(=O)Nc2ccc(F)cc2)n1", "method": "MTT", "value": "9.15 µM"}
{"smiles": "COc1cc2nc(SCC(=O)Nc3ccc(C(F)(F)F)cc3)nc(Nc3c(Cl)cc(/C=C/C#N)cc3Cl)c2cc1OC", "method": "MTT", "value": ">50 µM"}
{"smiles": "O=C1CC2CCC1C1C(=O)N(CCCN3CCN(c4ncccn4)CC3)C(=O)C21", "method": "MTT", "value": ">100 µM"}
{"smiles": "C[C@H]1CC[C@]2(CC(=O)N(Cc3nc4ccccc4n3C)O2)[C@H]2CN1C(=O)c1c(O)c(=O)c(C(=O)NCc3c(F)cc(F)cc3F)cn12", "method": "luminescence", "value": "50 µM"}
{"smiles": "S=C(NCc1ccco1)Nc1ccc(Cl)cc1", "method": "MTT", "value": "36.7 µM"}
{"smiles": "[O-][n+]1nc2c(Br)cnn2c2cc(Cl)ccc21", "value": ">200 µM"}
{"smiles": "COc1cc2nc(S(=O)CC(=O)Nc3cccc(C(F)(F)F)c3)nc(Nc3c(Cl)cc(/C=C/C#N)cc3Cl)c2cc1OC", "method": "MTT", "value": "21.8 µM"}
{"smiles": "Cc1cc(/C=C/C#N)cc(C)c1Oc1ccnc(S(=O)(=O)CC(=O)NCCc2ccc(F)cc2)n1", "method": "MTT", "value": "55.53 µM"}
{"smiles": "CCOC(=O)c1cnn2c1n[n+]([O-])c1ccc(Cl)cc12", "value": "13 µM"}
{"smiles": "Cc1ccccc1C(O)(c1c(C)c(=O)[nH]c(=O)n1COCc1ccccc1)C(C)C", "method": "MTT", "value": "123 µM"}
{"smiles": "CC1=NO[C@@]2(CC[C@H](C)N3C[C@H]2n2cc(C(=O)NCc4ccc(F)cc4F)c(=O)c(O)c2C3=O)N1C", "method": "luminescence", "value": "50 µM"}
{"smiles": "Cc1cc(C)c(-n2c(SCC(=O)Nc3ccc(C)cc3[N+](=O)[O-])nc3cccnc32)c(C)c1", "method": "MTT", "value": "144 µM"}
{"smiles": "CCOC(=O)c1cnn2c1nnc1ccccc12", "value": ">200 µM"}
{"smiles": "COc1cc2nc(S(=O)CC(=O)Nc3ccc([N+](=O)[O-])cc3)nc(Nc3c(C)cc(/C=C/C#N)cc3C)c2cc1OC", "method": "MTT", "value": "189 µM"}
{"smiles": "CC1=N[C@]2(CC[C@H](C)N3C[C@H]2n2cc(C(=O)NCc4ccc(F)cc4F)c(=O)c(O)c2C3=O)ON1", "method": "luminescence", "value": "50 µM"}
{"smiles": "CCC(O)(c1cccc(OC)c1)c1c(C)c(=O)[nH]c(=O)n1COCc1ccccc1", "method": "MTT", "value": "109 µM"}
{"smiles": "Cc1ccccc1N1CCN(CCCCN2C(=O)C3C4CCC(C(=O)C4)C3C2=O)CC1", "method": "MTT", "value": ">100 µM"}
{"smiles": "C[C@@H]1CO[C@@]2(CC[C@H](C)N3C[C@H]2n2cc(C(=O)NCc4c(F)cc(F)cc4F)c(=O)c(O)c2C3=O)O1", "method": "luminescence", "value": "31.9 µM"}
{"smiles": "Cc1cc(C)c(-n2c(SCC(=O)Nc3ccccc3Br)nc3cnccc32)c(C)c1", "method": "MTT", "value": "22 µM"}
{"smiles": "S=C(Nc1ccccc1Cl)NC1CCN(Cc2ccccc2)CC1", "method": "MTT", "value": "56 µM"}

The last 6 rows once more:

smiles,method,value
CC1=N[C@]2(CC[C@H](C)N3C[C@H]2n2cc(C(=O)NCc4ccc(F)cc4F)c(=O)c(O)c2C3=O)ON1,luminescence,50 µM
CCC(O)(c1cccc(OC)c1)c1c(C)c(=O)[nH]c(=O)n1COCc1ccccc1,MTT,109 µM
Cc1ccccc1N1CCN(CCCCN2C(=O)C3C4CCC(C(=O)C4)C3C2=O)CC1,MTT,>100 µM
C[C@@H]1CO[C@@]2(CC[C@H](C)N3C[C@H]2n2cc(C(=O)NCc4c(F)cc(F)cc4F)c(=O)c(O)c2C3=O)O1,luminescence,31.9 µM
Cc1cc(C)c(-n2c(SCC(=O)Nc3ccccc3Br)nc3cnccc32)c(C)c1,MTT,22 µM
S=C(Nc1ccccc1Cl)NC1CCN(Cc2ccccc2)CC1,MTT,56 µM